Results of unrelated studies side by side (data: NIAID ChemDB).

All rows: growth or infection tests; species: Herpes simplex virus 2

ECn: concentration that inhibits the pathogen or its effect by n%.

C=C(N=CC)c1nc(-c2cccc(C)c2)n(C2O[C@H](CO)[C@@H](O)[C@H](O)[C@H]2O)n1 ; cells: E6SM ; strain or isolate: G ; method: cytopathic effect ; read-out: EC50 ; value: 300 µg/mL
Nc1nc2c(ncn2C[C@]2(CO)C[C@H]2CO)c(=O)[nH]1 ; method: plaque count ; read-out: EC50 ; value: 0.1–1 µM
Nc1nc2c(ncn2COCCO)c(=O)[nH]1 ; cells: PRK ; strain or isolate: LYONS ; method: cytopathic effect ; read-out: EC50 ; value: 0.07 µg/mL
Cc1cn([C@H]2CC[C@@H](OCC(=O)O)C2)c(=O)[nH]c1=O ; cells: HEL ; strain or isolate: G ; method: cytopathic effect ; read-out: EC50 ; value: >250 µM
C/C=C/c1cn([C@H]2C[C@H](O)[C@@H](CO)O2)c(=O)[nH]c1=O ; cells: PRK ; strain or isolate: G ; method: virus yield ; read-out: EC99 ; value: 18 µg/mL
Nc1nc2c(ncn2COC(CO)CO)c(=O)[nH]1 ; method: plaque count ; read-out: EC50 ; value: 0.001–0.01 µM
COc1ccc(/C=N/N=C(/N)NO)c(OC)c1OC.Cc1ccc(S(=O)(=O)O)cc1 ; cells: VERO ; strain or isolate: G ; method: plaque count ; read-out: EC50 ; value: >50 µM
Cc1c(-c2ccc(F)cc2)[nH]c2nc3c(ncn3COCCO)c(=O)n12 ; cells: HEL ; strain or isolate: G ; method: cytopathic effect ; read-out: EC50 ; value: 1.92 µg/mL
Nc1nc2c(ncn2[C@@H]2C=C[C@H](CO)[C@@H](O)C2)c(=O)[nH]1 ; cells: E6SM ; strain or isolate: LYONS ; method: cytopathic effect ; read-out: EC50 ; value: 0.07 µg/mL
Nc1nc2c(ncn2CC=C(CO)CO)c(=O)[nH]1 ; cells: CCL18 ; method: cytopathic effect ; read-out: EC50 ; value: 11.7 µg/mL
O=c1[nH]c(=O)n([C@H]2C[C@H](O)[C@@H](CO)O2)cc1/C=C/Br ; cells: E6SM ; strain or isolate: 196 ; method: cytopathic effect ; read-out: EC50 ; value: >80 µg/mL
Nc1ncnc2c1ncn2C[C@@H](CO)OCP(=O)(O)O ; cells: ESM ; strain or isolate: LYONS ; method: cytopathic effect ; read-out: EC50 ; value: 0.1 µg/mL
Nc1nc2c(ncn2COC(CO)CO)c(=O)[nH]1 ; cells: VERO ; strain or isolate: G ; method: plaque count ; read-out: EC50 ; value: 0.9–1.8 µg/mL
C/C(=C\Cn1cnc2c(Cl)ncnc21)CO ; cells: CCL18 ; method: cytopathic effect ; read-out: EC50 ; value: >100 µg/mL
Nc1nc2c(ncn2C[C@]2(CO)C[C@H]2CO)c(=O)[nH]1 ; cells: MRC-5 ; strain or isolate: 186 ; method: plaque count ; read-out: EC50 ; value: >100 µg/mL
C=C(N=CC)c1nc(-c2ccc(C)cc2)n([C@@H]2O[C@H](CO)[C@@H](O)[C@H]2O)n1 ; cells: E6SM ; strain or isolate: G ; method: cytopathic effect ; read-out: EC50 ; value: >40 µg/mL
Nc1nc2c(ncn2COCCO)c(=O)[nH]1 ; cells: HFF ; strain or isolate: F23226 (acyclovir-resistant) ; method: cytopathic effect ; read-out: EC50 ; value: >50 µg/mL
CC=NC(=N)c1nc(-c2ccccc2)n(Cc2ccccc2)n1 ; cells: E6SM ; strain or isolate: G ; method: cytopathic effect ; read-out: EC50 ; value: >4 µg/mL
OC[C@H]1O[C@@H](c2cc(C(O)CBr)c(F)cc2F)C[C@@H]1O ; cells: E6SM ; strain or isolate: G ; method: cytopathic effect ; read-out: EC50 ; value: >3.2 µg/mL
Nc1nc2c(ncn2CCC(CO)CO)c(=O)[nH]1 ; cells: MRC-5 ; strain or isolate: MS ; method: plaque count ; read-out: EC50 ; value: 0.8 µg/mL
CC1(CO)CCC(Cn2nnc3c(=O)[nH]cnc32)C1(C)C ; cells: E6SM ; strain or isolate: G ; method: cytopathic effect ; read-out: EC50 ; value: >200 µg/mL
Nc1nc2c(ncn2CCC(O)CO)c(=O)[nH]1 ; cells: HEL ; strain or isolate: R37 ; method: cytopathic effect / ELISA ; read-out: EC50 ; value: 8 µM
C/C(=C\Cn1cnc2c(N)ncnc21)CO ; cells: CCL18 ; method: cytopathic effect ; read-out: EC50 ; value: >100 µg/mL
O=c1c2ncn(COCCO)c2nc2[nH]c(-c3ccc(F)cc3)cn12 ; cells: HEL ; strain or isolate: 196 ; method: cytopathic effect ; read-out: EC50 ; value: >16 µg/mL
Cc1cccc(C)c1N(CC(=O)Nc1ccc(-c2ncon2)cc1)C(C)C1CCS(=O)(=O)CC1 ; cells: Vero Cells + HEF cells ; strain or isolate: Whitlow 2 ; method: plaque count ; read-out: EC50 ; value: 0.012 µM
O=C(NCc1ccc(Cl)cc1)c1cn(N2CCOCC2)c2ccc(CN3CCOCC3)cc2c1=O ; cells: HFF ; strain or isolate: MS ; method: plaque count ; read-out: EC50 ; value: 2.5 µM
Nc1ncnc2c1ncn2C/C=C(/CO)c1ccccc1 ; cells: CCL18 ; method: cytopathic effect ; read-out: EC50 ; value: >100 µg/mL
CC1(CO)CCC(Cn2cnc3c(=O)[nH]cnc32)C1(C)C ; cells: E6SM ; strain or isolate: G ; method: cytopathic effect ; read-out: EC50 ; value: >200 µg/mL
OC[C@H]1O[C@@H](c2cc(C(O)CI)c(F)cc2F)C[C@@H]1O ; cells: E6SM ; strain or isolate: G ; method: cytopathic effect ; read-out: EC50 ; value: >16 µg/mL
COc1ccc(/C=N/N=C(\N)NO)cc1.Cc1ccc(S(=O)(=O)O)cc1 ; cells: VERO ; strain or isolate: G ; method: plaque count ; read-out: EC50 ; value: >50 µM
CC=NC(=N)c1nc(-c2cccc(C)c2)n(COCCO)n1 ; cells: E6SM ; strain or isolate: G ; method: cytopathic effect ; read-out: EC50 ; value: >10 µg/mL
O=c1[nH]cnc2c1ncn2CC=C(CO)CO ; cells: CCL18 ; method: cytopathic effect ; read-out: EC50 ; value: >100 µg/mL
CC1(CO)CCC(Cn2nnc3c(Cl)ncnc32)C1(C)C ; cells: E6SM ; strain or isolate: G ; method: cytopathic effect ; read-out: EC50 ; value: >200 µg/mL
NC1=NC2C(C=CN2CC(CO)CCO)C(=O)N1 ; cells: VERO ; strain or isolate: G ; method: plaque count ; read-out: EC50 ; value: 1.7 µM
CC=NC(=N)c1nc(-c2ccc(OC)cc2)n(C/C=C/c2ccccc2)n1 ; cells: E6SM ; strain or isolate: G ; method: cytopathic effect ; read-out: EC50 ; value: >10 µg/mL
Nc1nc2c(ncn2COC2COP(=O)(O)OC2)c(=O)[nH]1 ; cells: HEL ; strain or isolate: R37 ; method: cytopathic effect / ELISA ; read-out: EC50 ; value: >25 µM
O=c1[nH]c(=O)n([C@H]2C[C@H](O)[C@@H](CO)O2)cc1/C=C/C(F)(F)F ; cells: PRK ; strain or isolate: G ; method: virus yield ; read-out: EC99 ; value: 100 µg/mL
CC=NC(=N)c1nc(-c2cccc(C)c2)n(Cc2ccccc2)n1 ; cells: E6SM ; strain or isolate: G ; method: cytopathic effect ; read-out: EC50 ; value: >4 µg/mL
NC1=NC2C(C=CN2CC(CO)CCO)C(=O)N1 ; method: plaque count ; read-out: EC50 ; value: 0.01–0.1 µM
Nc1nc2c(ncn2C[C@@H](CO)CCO)c(=O)[nH]1 ; cells: HEL ; strain or isolate: R37 ; method: cytopathic effect / ELISA ; read-out: EC50 ; value: 2 µM
O=c1[nH]cnc2c1ncn2C/C=C(/CO)c1ccccc1 ; cells: CCL18 ; method: cytopathic effect ; read-out: EC50 ; value: >100 µg/mL
COc1ccc(-c2[nH]c3nc4c(ncn4COCCO)c(=O)n3c2C)cc1 ; cells: HEL ; strain or isolate: G ; method: cytopathic effect ; read-out: EC50 ; value: 1.92 µg/mL
Nc1nc2c(ncn2COCCOC(CO)CO)c(=O)[nH]1 ; cells: VERO ; strain or isolate: G ; method: plaque count ; read-out: EC50 ; value: >100 µM

5 of the rows above, restated:

{"smiles": "O=c1[nH]c(=O)n([C@H]2C[C@H](O)[C@@H](CO)O2)cc1/C=C/C(F)(F)F", "cells": "PRK", "strain or isolate": "G", "method": "virus yield", "read-out": "EC99", "value": "100 µg/mL"}
{"smiles": "Nc1nc2c(ncn2COCCOC(CO)CO)c(=O)[nH]1", "cells": "VERO", "strain or isolate": "G", "method": "plaque count", "read-out": "EC50", "value": ">100 µM"}
{"smiles": "C/C=C/c1cn([C@H]2C[C@H](O)[C@@H](CO)O2)c(=O)[nH]c1=O", "cells": "PRK", "strain or isolate": "G", "method": "virus yield", "read-out": "EC99", "value": "18 µg/mL"}
{"smiles": "CC=NC(=N)c1nc(-c2ccc(OC)cc2)n(C/C=C/c2ccccc2)n1", "cells": "E6SM", "strain or isolate": "G", "method": "cytopathic effect", "read-out": "EC50", "value": ">10 µg/mL"}
{"smiles": "Nc1nc2c(ncn2CCC(CO)CO)c(=O)[nH]1", "cells": "MRC-5", "strain or isolate": "MS", "method": "plaque count", "read-out": "EC50", "value": "0.8 µg/mL"}

Rows are shuffled and stem from different studies. Two numbers with a dash give a range or band.